Experimental data reported in paper PMC7971878, “ADAM17 is an essential attachment factor for classical swine fever virus” (2021).

Target: chicken ADAM17 (cADAM17), flag-tagged, stably expressed in PK15 ADAM17-KO cells (chicken)
Assay: flow cytometry on cells

Substance: CSFV E2 extracellular domain fused with Fc tag at the C-terminus (sE2-Fc) (Fc fusion)
- binding efficiency as compared with pADAM17: 20%
